Reference: article PMC9168620, “Genetic validation of Aspergillus fumigatus phosphoglucomutase as a viable therapeutic target in invasive aspergillosis” (The Journal of Biological Chemistry, 2022)

Sequences of proteins named here, by UniProt entry; tags and fusion partners are left off.
UniProt Q4WY53, whole entry: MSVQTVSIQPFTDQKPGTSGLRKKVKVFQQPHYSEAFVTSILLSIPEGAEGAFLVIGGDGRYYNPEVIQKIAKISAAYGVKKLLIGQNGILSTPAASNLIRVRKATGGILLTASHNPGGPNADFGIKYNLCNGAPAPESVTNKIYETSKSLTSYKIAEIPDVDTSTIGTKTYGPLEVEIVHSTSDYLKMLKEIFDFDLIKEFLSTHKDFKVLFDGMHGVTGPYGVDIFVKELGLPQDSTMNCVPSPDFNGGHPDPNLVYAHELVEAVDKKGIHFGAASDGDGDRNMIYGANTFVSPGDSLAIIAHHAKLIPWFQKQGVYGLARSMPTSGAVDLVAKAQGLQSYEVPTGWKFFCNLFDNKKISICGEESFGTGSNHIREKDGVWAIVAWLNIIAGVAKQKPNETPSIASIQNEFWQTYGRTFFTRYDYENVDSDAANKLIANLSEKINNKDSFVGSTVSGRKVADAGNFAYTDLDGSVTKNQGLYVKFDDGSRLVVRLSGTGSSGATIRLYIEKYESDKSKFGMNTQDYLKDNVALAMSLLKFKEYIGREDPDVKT
UniProt Q4WY53, whole entry C131S/C242S/C364S: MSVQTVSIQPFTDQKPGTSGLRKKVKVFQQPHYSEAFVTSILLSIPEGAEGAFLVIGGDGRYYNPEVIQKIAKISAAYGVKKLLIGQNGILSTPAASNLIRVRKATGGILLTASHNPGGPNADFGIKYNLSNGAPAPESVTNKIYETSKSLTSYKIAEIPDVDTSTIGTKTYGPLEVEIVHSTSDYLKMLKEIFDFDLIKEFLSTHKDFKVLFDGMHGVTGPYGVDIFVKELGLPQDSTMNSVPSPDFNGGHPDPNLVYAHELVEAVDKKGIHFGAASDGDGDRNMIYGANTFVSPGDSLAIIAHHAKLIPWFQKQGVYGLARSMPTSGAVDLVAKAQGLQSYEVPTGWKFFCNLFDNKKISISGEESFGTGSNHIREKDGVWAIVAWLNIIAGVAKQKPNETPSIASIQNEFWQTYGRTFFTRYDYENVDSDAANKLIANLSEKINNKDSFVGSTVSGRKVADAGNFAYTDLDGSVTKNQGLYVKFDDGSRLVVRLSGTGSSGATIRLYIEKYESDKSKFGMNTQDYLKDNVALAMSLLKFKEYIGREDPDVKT

Columns and labels:
[1] = molecular target: AfPGM (Aspergillus fumigatus, UniProt Q4WY53); conditions: read-out: IC50 AfPGM; WT AfPGM 5 nM, no preincubation, 500 μM Glc-1P
[2] = molecular target: AfPGMC353∗ (Aspergillus fumigatus, UniProt Q4WY53, C131S/C242S/C364S); assay: G6PDH coupled assay for PGM, AfPGMC353∗ variant (C353 the sole cysteine); assay type: biochemical; conditions: read-out: IC50 AfPGMC353; AfPGMC353∗ (all other cysteines mutated to serine) 5 nM, no preincubation

Cn1sccc1=O
IC50 [1]: > 400 µM

CCOC(=O)c1ccc(-n2sccc2=O)cc1
IC50 [2]: 9.8 µM
IC50 [1]: 2 µM

COC(=O)c1ccc(-n2sccc2=O)cc1
IC50 [2]: 5.7 µM
IC50 [1]: 2 µM

O=c1ccsn1-c1ccccc1
IC50 [2]: 21 µM
IC50 [1]: 20 µM

O=c1ccsn1-c1ccc(F)c(Cl)c1
IC50 [2]: 8.8 µM
IC50 [1]: 3.7 µM

O=c1ccsn1-c1cccc(C(F)(F)F)c1
IC50 [2]: 10 µM
IC50 [1]: 9 µM
